The results in this text go back to article PMC11012547, “Identification and Biological Evaluation of a Novel Small-Molecule Inhibitor of Ricin Toxin” (2024).

In assay [1] the target is T1, RTA (Ricinus communis, UniProt P02879). Put plainly: BioLayer Interferometry (BLI) binding of compounds to biotinylated RTA. As to conditions: BLI Octet RED, biotinylated RTA on sensor. A general note: In BLI a coated tip is dipped into the sample, and binding shifts an interference pattern.
The target of assay [2] is T1, RTA. Nature of the assay: Cell-free luciferase translation assay (rabbit reticulocyte lysate) with RTA. The note with it: 20 μg/mL RTA, 90 min.
Another assay has as its target ricin (Ricinus communis, UniProt P02879). Nature of the assay: Cell-free luciferase translation assay (rabbit reticulocyte lysate) with ricin. As to conditions: 100 ng/mL ricin, 90 min.

At RTA [1], `Nc1nc2ncc(CNc3ccc(C(=O)O)cc3)nc2c(=O)[nH]1` had a Koff of 0.0514 s⁻¹ and a Kon of 5920 M⁻¹ s⁻¹.
For `CCN(CC)S(=O)(=O)c1cccc(NN=C2C(=O)NC(=O)NC2=O)c1`, the Koff on RTA [1] turned out to be 0.00768 s⁻¹. In addition, the Kon on RTA [1] was determined as 8320 M⁻¹ s⁻¹. In addition, the “Luciferase synthesis rate relative to RTA-treated group alone” value on RTA [2] (100 μM compound) is given as “approximately 1.5 fold”; on RTA [2] (200 μM compound) it was 2.5 fold. Moreover, the “Luciferase synthesis rate relative to ricin control group” value at ricin (100 μM compound) stood at 1.5 times; at ricin (200 μM compound) it was 1.8 times.
